Data: article PMC12797228 (ACS Infectious Diseases, 2025)

Chains of the proteins cited; added tags and fusions are not shown. Lines headed by an entry give the natural chain unless they say otherwise; changes in a name come on top. Residues count along the entry.
UniProt A0A6H3A7B1, 1-823: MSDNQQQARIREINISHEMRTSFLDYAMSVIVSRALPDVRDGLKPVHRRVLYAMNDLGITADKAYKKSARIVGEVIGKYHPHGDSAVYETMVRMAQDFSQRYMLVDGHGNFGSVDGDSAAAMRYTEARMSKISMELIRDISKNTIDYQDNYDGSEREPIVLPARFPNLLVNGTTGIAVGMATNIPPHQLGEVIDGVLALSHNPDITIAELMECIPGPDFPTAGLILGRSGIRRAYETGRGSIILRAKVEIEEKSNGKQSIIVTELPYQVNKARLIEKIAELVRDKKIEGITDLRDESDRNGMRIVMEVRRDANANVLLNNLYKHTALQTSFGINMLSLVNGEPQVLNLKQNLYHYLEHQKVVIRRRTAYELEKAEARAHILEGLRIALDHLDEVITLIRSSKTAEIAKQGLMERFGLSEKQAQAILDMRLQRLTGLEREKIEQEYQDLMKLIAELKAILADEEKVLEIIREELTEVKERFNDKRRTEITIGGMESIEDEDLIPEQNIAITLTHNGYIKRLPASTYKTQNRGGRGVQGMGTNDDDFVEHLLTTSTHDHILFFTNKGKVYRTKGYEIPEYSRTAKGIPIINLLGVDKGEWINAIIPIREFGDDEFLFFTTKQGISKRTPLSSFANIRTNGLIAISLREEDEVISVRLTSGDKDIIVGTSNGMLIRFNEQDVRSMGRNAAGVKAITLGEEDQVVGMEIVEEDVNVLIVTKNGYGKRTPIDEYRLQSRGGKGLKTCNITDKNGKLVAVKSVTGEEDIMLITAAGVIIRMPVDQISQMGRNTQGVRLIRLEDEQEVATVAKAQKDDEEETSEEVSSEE
UniProt Q9X3Y6: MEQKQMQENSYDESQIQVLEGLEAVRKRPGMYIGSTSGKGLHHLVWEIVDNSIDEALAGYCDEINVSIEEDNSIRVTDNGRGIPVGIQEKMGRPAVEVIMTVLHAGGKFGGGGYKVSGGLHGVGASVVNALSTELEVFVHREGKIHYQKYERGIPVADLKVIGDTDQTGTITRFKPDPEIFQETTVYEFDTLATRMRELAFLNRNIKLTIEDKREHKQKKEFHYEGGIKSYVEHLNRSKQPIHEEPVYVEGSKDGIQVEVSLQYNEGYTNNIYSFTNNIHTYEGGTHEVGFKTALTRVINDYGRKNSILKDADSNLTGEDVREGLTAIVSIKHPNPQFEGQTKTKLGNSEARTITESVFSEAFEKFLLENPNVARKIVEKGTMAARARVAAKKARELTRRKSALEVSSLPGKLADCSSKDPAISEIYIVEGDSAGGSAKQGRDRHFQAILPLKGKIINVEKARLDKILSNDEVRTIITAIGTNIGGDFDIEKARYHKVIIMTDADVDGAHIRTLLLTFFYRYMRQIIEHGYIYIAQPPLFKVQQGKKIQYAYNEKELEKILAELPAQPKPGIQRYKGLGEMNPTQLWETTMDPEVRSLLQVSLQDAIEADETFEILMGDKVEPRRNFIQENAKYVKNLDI
UniProt A0A6H3AG07, 1-807: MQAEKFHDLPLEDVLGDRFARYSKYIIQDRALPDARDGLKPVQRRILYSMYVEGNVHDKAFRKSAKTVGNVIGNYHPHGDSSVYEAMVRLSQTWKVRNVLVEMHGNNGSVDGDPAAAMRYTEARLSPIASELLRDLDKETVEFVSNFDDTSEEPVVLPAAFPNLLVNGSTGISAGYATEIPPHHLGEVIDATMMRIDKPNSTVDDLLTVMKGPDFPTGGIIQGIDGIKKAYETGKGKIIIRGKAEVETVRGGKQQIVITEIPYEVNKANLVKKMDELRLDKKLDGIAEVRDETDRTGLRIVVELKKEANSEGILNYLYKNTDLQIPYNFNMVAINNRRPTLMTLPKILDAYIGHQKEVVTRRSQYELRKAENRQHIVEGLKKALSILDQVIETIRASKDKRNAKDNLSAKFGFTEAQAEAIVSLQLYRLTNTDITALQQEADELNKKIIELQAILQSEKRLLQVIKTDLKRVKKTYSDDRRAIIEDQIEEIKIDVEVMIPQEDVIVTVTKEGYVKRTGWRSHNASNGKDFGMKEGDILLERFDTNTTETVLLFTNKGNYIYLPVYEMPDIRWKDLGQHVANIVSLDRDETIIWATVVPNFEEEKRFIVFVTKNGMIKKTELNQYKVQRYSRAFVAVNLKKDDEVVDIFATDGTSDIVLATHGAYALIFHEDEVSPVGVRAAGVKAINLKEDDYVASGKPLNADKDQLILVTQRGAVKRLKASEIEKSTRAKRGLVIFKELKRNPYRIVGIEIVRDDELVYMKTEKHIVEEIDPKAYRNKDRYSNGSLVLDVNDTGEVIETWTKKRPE
UniProt A0AAC8SCF4, 1-654: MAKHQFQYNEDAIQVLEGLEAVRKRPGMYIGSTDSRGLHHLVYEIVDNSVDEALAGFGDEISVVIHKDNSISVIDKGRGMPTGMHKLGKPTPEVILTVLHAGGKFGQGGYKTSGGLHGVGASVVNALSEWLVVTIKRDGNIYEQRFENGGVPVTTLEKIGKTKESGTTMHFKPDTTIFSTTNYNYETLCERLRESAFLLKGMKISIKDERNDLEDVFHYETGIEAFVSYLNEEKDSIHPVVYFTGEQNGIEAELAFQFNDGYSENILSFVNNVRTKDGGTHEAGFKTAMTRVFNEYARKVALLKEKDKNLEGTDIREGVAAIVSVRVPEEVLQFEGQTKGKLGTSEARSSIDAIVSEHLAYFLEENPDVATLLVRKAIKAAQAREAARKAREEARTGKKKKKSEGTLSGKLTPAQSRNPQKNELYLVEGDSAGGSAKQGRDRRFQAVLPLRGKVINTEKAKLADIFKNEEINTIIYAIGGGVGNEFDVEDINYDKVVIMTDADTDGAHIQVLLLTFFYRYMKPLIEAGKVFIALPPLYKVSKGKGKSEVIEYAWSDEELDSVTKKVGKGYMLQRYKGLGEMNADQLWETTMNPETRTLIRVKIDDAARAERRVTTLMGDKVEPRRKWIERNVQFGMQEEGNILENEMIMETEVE

Experiments:
[1] = biological target: wild-type B. anthracis gyrase (Bacillus anthracis, UniProt A0A6H3A7B1+Q9X3Y6); experiment: biochemical; settings: read-out: Adj-Max Cleavage, single-stranded DNA breaks
[2] = biological target: wild-type B. anthracis topoisomerase IV (Bacillus anthracis, UniProt A0A6H3AG07+A0AAC8SCF4); experiment: biochemical
[3] = in vivo; settings: female, BALB/c, mouse, po, 50 mg/kg
[4] = read-out: Adj-Max Cleavage, single-stranded DNA breaks

Q: For `O=c1ccc2ncc(=O)n3c2n1C[C@H]3CN1CCC(NCc2cc3c(cn2)OCCC3)CC1` [Gepotidacin, gepotidacin, reference compound], which Emax [1] is on record?
A: Its Emax is about 20%.

Q: And the “Adj-Max Cleavage, single-stranded DNA breaks” value [2]?
A: The value was 5.3%.

Q: What about the Emax [2, 4] of the same compound?
A: Its Emax is about 5%.

Q: With `COc1ccc2ncc(F)c(C[C@H](O)[C@H]3OC[C@H](NCc4cnc5c(n4)NC(=O)CO5)CO3)c2n1` [OSUAB-0284, 6-(((trans-2-((S)-2-(3-fluoro-6-methoxy-1,5-naphthyridin-4-yl)-1-hydroxyethyl)-1,3-dioxan-5-yl)amino)methyl)-2H-pyrazino[2,3-b][1,4]oxazin-3(4H)-one] as the compound, how does the Emax [1] read?
A: The Emax was about 25%.

Q: What about the “Adj-Max Cleavage, single-stranded DNA breaks” value [2] of the same compound?
A: The value was 12.4%.

Q: And the Emax ([2]; 10 min, read-out: Double-stranded DNA breaks, level induced (adjusted maximal cleavage))?
A: Its Emax is about 2%.

Q: And the Emax [2, 4]?
A: Its Emax is about 12%.

Q: What about the bioavailability [3] of the same compound?
A: Its bioavailability is 124%.

Like-named read-outs stand apart in the source and are kept apart here.
